Results: US20240158368A1, “Pyrrolidine Main Protease Inhibitors as Antiviral Agents” (AbbVie Inc., priority 2022, published 2024)

The chains behind the UniProt entries cited, without tags or fusion partners. Residues count along the entry.
UniProt K9N7C7, 3248-3553 limits assumed: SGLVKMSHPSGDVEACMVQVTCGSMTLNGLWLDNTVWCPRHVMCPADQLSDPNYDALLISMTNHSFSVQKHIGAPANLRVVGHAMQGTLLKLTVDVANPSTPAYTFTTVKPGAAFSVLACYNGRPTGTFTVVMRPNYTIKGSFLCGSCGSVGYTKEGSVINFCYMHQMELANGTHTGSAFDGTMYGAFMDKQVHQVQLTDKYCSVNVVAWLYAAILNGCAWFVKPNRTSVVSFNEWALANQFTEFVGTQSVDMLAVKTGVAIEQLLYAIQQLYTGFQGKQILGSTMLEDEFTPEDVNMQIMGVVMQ

Assays:
SARS-CoV-1 Mpro = SARS-CoV-1 Mpro (Severe acute respiratory syndrome coronavirus (SARS-CoV), UniProt P0C6X7); format: biochemical
MERS Mpro = MERS Mpro (Middle East respiratory syndrome-related coronavirus (isolate United Kingdom/H123990006/2012) (MERS-CoV) (Betacoronavirus England 1), UniProt K9N7C7); assay: biochemical

| Compound | EC50 (SARS-CoV-1 Mpro) [nM] | EC50 (MERS Mpro) [nM] |
| --- | --- | --- |
| N#Cc1cc(C(=O)N2CCOCC2)c(N2CC[C@H](NC(=O)c3cc(=O)[nH]c4c(F)cccc34)C2)c(C(F)(F)F)c1 [Compound 4] | 9.93 | 12.3 |
| O=C(N[C@H]1CCN(c2c(C(=O)N3CCOCC3)cc(Br)cc2C(F)(F)F)C1)c1cc(=O)[nH]c2c(F)cccc12 [Compound 47] | – | 9.61 |
